Results of unrelated studies side by side (data: NIAID ChemDB).

All rows: tests in culture; organism: Herpes simplex virus 1; measure: MIC

An empty or dashed field is not shown. Lines come from different laboratories, so protocols vary.

smiles,strain,result
CC(=O)NS(=O)(=O)c1ccc(NC(=O)CCC[Se][Se]CCCC(=O)Nc2ccc(S(=O)(=O)NC(C)=O)cc2)cc1,-,>1000 µg/mL
NCC(=O)N[C@@H](Cc1ccccc1)C(=O)OCCOCn1cnc2c(=O)[nH]c(N)nc21,KOS,0.96 µM
NS(=O)(=O)c1ccc(NC(=O)CCC[Se][Se]CCCC(=O)Nc2ccc(S(N)(=O)=O)cc2)cc1,-,>1000 µg/mL
Nc1ncnc2c1ncn2[C@@H]1C=C(CO)[C@@H](O)[C@H]1O,KOS,7 µg/mL
O=c1c2ccccc2[se]n1-c1ccccn1,-,2 µg/mL
NC(=O)c1ncn([C@@H]2O[C@H](CO)[C@@H](O)[C@H]2O)n1,KOS,>1000 µM
O=c1c2ccccc2[se]n1-c1ccccc1,-,2 µg/mL
Nc1nc(N)c2ncn(CCOCP(=O)(O)O)c2n1,-,2 µg/mL
CC(C)[C@H](N)C(=O)N[C@H](C(=O)OCCOCn1cnc2c(=O)[nH]c(N)nc21)C(C)C,KOS,2.9 µM
CCCn1[se]c2ncccc2c1=O,-,0.4 µg/mL
Nc1nc2c(ncn2COCCOC(=O)CNC(=O)[C@@H](N)Cc2ccccc2)c(=O)[nH]1,KOS,0.8 µM
CCCNC(=S)Nc1ccccc1[Se][Se]c1ccccc1NC(=S)NCCC,-,>1000 µg/mL
O=c1c2ccccc2[se]n1-c1ccccc1,-,4 µg/mL
C[C@H](NC(=O)CN)C(=O)OCCOCn1cnc2c(=O)[nH]c(N)nc21,KOS,0.96 µM
O=c1c2cccnc2[se]n1N(c1ccccc1)c1ccccn1,-,2 µg/mL
Nc1ccccc1[Se][Se]c1ccccc1N,-,40 µg/mL
O=c1c2cccnc2[se]n1-c1ccc(Cl)cc1,-,1 µg/mL
CCCCNS(=O)(=O)c1ccc(NC(=O)CCC[Se][Se]CCCC(=O)Nc2ccc(S(=O)(=O)NCCCC)cc2)cc1,-,>1000 µg/mL
O=c1[nH][se]c2ncccc12,-,0.4 µg/mL
Oc1ccccc1[Se][Se]c1ccccc1O,-,>1000 µg/mL
C[n+]1cccc(-n2[se]c3ccccc3c2=O)c1,-,20 µg/mL
Nc1ncnc2c1ncn2CCOCP(=O)(O)O,TK-,7 µg/mL
Cn1[se]c2ncccc2c1=O,-,0.6 µg/mL
NS(=O)(=O)c1ccc(NC(=O)c2ccccc2[Se][Se]c2ccccc2C(=O)Nc2ccc(S(N)(=O)=O)cc2)cc1,-,>1000 µg/mL

The first 2 rows once more:

smiles | strain | result
CC(=O)NS(=O)(=O)c1ccc(NC(=O)CCC[Se][Se]CCCC(=O)Nc2ccc(S(=O)(=O)NC(C)=O)cc2)cc1 | - | >1000 µg/mL
NCC(=O)N[C@@H](Cc1ccccc1)C(=O)OCCOCn1cnc2c(=O)[nH]c(N)nc21 | KOS | 0.96 µM